Structures can show the parent of a compound that is named as a salt.
system: MDCK cells; experiment: XTT cytotoxicity assay in MDCK cells; settings: ratio CC50 / EC50

In order of falling “In vitro therapeutic index” value:
1. C=C[C@H]1C[N@@]2CC[C@H]1C[C@H]2[C@H](O)c1ccnc2ccc(OC)cc12 [Quinine, Quinine sulfate]  44.90
2. CCN(CC)CCCCCCCCOC(=O)c1cc(OC)c(OC)c(OC)c1.Cl [TMB-8, TMB-8 hydrochloride]  20.91
3. C=C[C@H]1C[N@@]2CC[C@H]1C[C@@H]2[C@@H](O)c1ccnc2ccc(OC)cc12 [Quinidine, quinidine anhydrous]  10.32
4. CN(C)c1nc(N)c(C(=O)NC(=N)N)nc1Cl [5-(N,N-Dimethyl)amiloride hydrochloride, 5-(N,N-Dimethyl) amiloride hydrochloride]  5.63
5. CNc1ccc2oc(C[C@H]3O[C@@]4(CC[C@H]3C)O[C@H]([C@H](C)C(=O)c3ccc[nH]3)[C@H](C)C[C@H]4C)nc2c1C(=O)O [A23187 (calcimycin), calcimycin (A23187)]  5.16
6. CCN(CC)CCCC(C)Nc1c2ccc(Cl)cc2nc2ccc(OC)cc12 (stereo not drawn) [Quinacrine, quinacrine dihydrochloride]  4.93
7. OC(c1cc(C(F)(F)F)nc2c(C(F)(F)F)cccc12)C1CCCCN1 (stereo not drawn) [Mefloquine, mefloquine hydrochloride]  4.47
8. CO/C1=C\C(C)=C\[C@@H](C)[C@@H](O)[C@@H](C)C/C(C)=C/C=C/[C@H](OC)[C@@H]([C@@H](C)[C@@H](O)[C@H](C)[C@@]2(O)C[C@@H](O)[C@H](C)[C@@H](C(C)C)O2)OC1=O [Bafilomycin A, bafilomycin A]  4.19
9. COc1cc(CNC(=O)CCCC/C=C/C(C)C)ccc1O [Capsaicin, capsaicin]  2.67
